# Results of single-concentration screens

The values are deposited in ChEMBL (CHEMBL3988442, “University of Dundee, Small-Polar-MMV Screening Library” (2021)).

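Whole-cell growth test on Mycobacterium tuberculosis, read after 4 days in a medium based on cholesterol and the lipid DPPC; the read-out is not stated. Compounds at 500 µM. Direction is inferred from retests: higher values go with more growth inhibition. Size under these conditions: about 18,000 compounds, about 900 of them at 50% or above in at least one test.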

The filed quantity is “Percent Effect” (%). How 0% and 100% were set is not recorded. Most values in the screen are low, and negative values occur. Many other results are left out here, so strong results are more common than in the screen.

SMILES	Percent Effect
CN(CC(=O)Nc1sccc1C(N)=O)Cc1ccco1	29.12%
CS(=O)(=O)CCN1CCSC2(CCCCC2)C1	26.43%
CN(C)S(=O)(=O)N1CCCC1c1ccccc1Br (centres undefined)	57.16%
Cc1oncc1CN1C[C@@H](F)C[C@H]1CN	4.554%
COc1cc(OC)c(S(N)(=O)=O)c(OC)c1	-17.18%
COc1cc(CNC(=O)Nc2ccnc(C)c2)ccn1	49.34%
CCN1CCCN(C(=O)c2ccc(C)c(OC)c2)CC1	10.06%
CCCC1COCCN1Cc1cc(C)n[nH]1 (centres undefined)	5.366%
CCC[C@H]1CN(C(=O)CCn2cnnn2)C[C@@H]1N	11.16%
Cc1nn(C)cc1S(=O)(=O)NCc1cccnc1	4.206%
NCc1ccncc1OCc1ccccc1	39.27%
NCCC1CN(Cc2cc3ccccc3s2)CCO1 (centres undefined)	61.99%
Cc1nn(C)c(C)c1CCC(=O)N[C@@H]1CCNC[C@H]1O	11.49%
CNCC1(O)CCCc2ccccc21 (centres undefined)	-24.43%
CC(C)COc1cncc(NC(C)CO)n1 (centres undefined)	14.29%
COc1ccc(C)cc1CN1CCN(S(N)(=O)=O)CC1	65.66%
N#Cc1c(CCCN)nn(-c2ccccc2)c1N	8.793%
COc1cc(NC(=O)N(C)CCN(C)C)ccc1F	7.394%
OCC1(CO)COC1	-2.287%
OCCc1cn2c(n1)CCCC2	-5.716%
CC(=O)NCCNC(=O)c1cc(-c2ccco2)on1	-5.536%
CCN1CCN(C(C)CNC(=O)Cn2cnnn2)CC1 (centres undefined)	73.31%
CNS(=O)(=O)C1CCN(S(=O)(=O)c2ccccc2)CC1	3.103%
OCCCN1CCC(=Cc2ccccc2)CC1	73.75%
O=C(NCCc1ccc(F)c(F)c1)N1CCCC(O)C1 (centres undefined)	19.11%
Cc1cc(C)nc(N2CCOCC2C(N)=O)n1 (centres undefined)	1.626%
COCC(C)(CCO)NCc1nc(C)no1 (centres undefined)	3.452%
CC(C)Cc1cc(CNC(=O)C2CCOC2)on1 (centres undefined)	9.709%
CC(=O)N[C@@H]1CN(Cc2cccc(Br)c2)C[C@H]1CO	2.664%
O=C(CNCC1CC1)Nc1ccc(F)cc1	34.32%
CC(CO)N1CCCN(c2cccc(C#N)n2)CC1 (centres undefined)	-2.616%
Cc1ccccc1C(=O)NCCN1CCN(C)CC1	-0.4615%
CCS(=O)(=O)NCC(N)c1ccc(C(C)C)cc1 (centres undefined)	67.41%
CSCCCNC(=O)c1ccc(CN(C)C)o1	2.619%
CC(=O)NCc1ccc(OC2CCN(C)CC2)cc1	16.17%
FC(F)COCCn1nnc(-c2ccsc2)n1	89.64%
O=C(CCN1CCCC(O)C1)N1CCc2ccccc21 (centres undefined)	-3.059%
CCC(CO)CC(F)(F)F (centres undefined)	0.3746%
CCc1ccc(CN2CC(N3CCOCC3)C2)o1	87.92%
COCc1noc(-c2ccc(C#N)cc2)n1	-19.97%
O=C(CN1CCCCC1)Nc1cc(Br)ccn1	-7.32%
N#Cc1ccc(S(=O)(=O)NCCN)cc1C(F)(F)F	65.17%
CCN1CC(C(=O)NCCCc2cnn(C)c2)CC1=O (centres undefined)	-4.797%
Cn1cc(Br)cc1C(=O)NCCC(O)C(F)(F)F (centres undefined)	-6.141%
COCCCN1CCN(c2ccccc2OC)CC1	36.15%
CSCc1cccc(C(=O)NC2CCCCNC2=O)c1 (centres undefined)	-16.83%
CCCn1nnnc1NCc1ccc(F)cc1	60.93%
CCOc1c(CNCCO)cc(Cl)cc1OC	8.091%
COc1cc(CNc2ccc(CO)cn2)cc(OC)c1	41.4%
CCN1CCN(CCOc2ccc(C#N)cc2)CC1	3.632%
Cc1cc(N2CCN(CCO)CC2)nc2ccccc12	27.3%
NC(=O)CCN1CCCC1	-10.9%
Cc1n[nH]c(SCC(=O)NCCN2CCCC2=O)n1	8.224%
CN(C)C(CNC(=O)c1ccncc1)c1ccsc1 (centres undefined)	4.467%
CC(=O)N1CCCN(Cc2nc(C3CC3)no2)CC1	-10.53%
COc1cccc(C2(F)CCNCC2)c1	17.23%
NCC1CCN1Cc1ccccc1 (centres undefined)	5.425%
NC(=O)COc1ccccc1CNC1CCCC1	4.947%
Cc1cc(C)c2nc(CN3CCC(N)C3)cc(O)c2c1 (centres undefined)	7.955%
CN(C)C(=O)c1csc(N2CCCCC2)n1	38.88%
O=C(CCC1CCCCC1)N1CCNCC1	40.8%
NCc1ccc(C(=O)NC2CC2)cc1	3.162%
CN(C)CCN(C)Cc1ccc(N)nc1	-3.159%
CCn1ccc(NC(=O)C2CCCC2)n1	18.88%
COCCC(C)(O)C(C)(C)CN (centres undefined)	3.252%
CNS(=O)(=O)c1ccc(F)c(C)c1	0.4474%
CCNc1ncc(C(=O)N2CCCCC2)s1	64.32%
COc1cc(CNC(C)C)cc(Br)c1OCC(N)=O	1.027%

Once more, the final 7:

SMILES,Percent Effect
NCc1ccc(C(=O)NC2CC2)cc1,3.162%
CN(C)CCN(C)Cc1ccc(N)nc1,-3.159%
CCn1ccc(NC(=O)C2CCCC2)n1,18.88%
COCCC(C)(O)C(C)(C)CN (centres undefined),3.252%
CNS(=O)(=O)c1ccc(F)c(C)c1,0.4474%
CCNc1ncc(C(=O)N2CCCCC2)s1,64.32%
COc1cc(CNC(C)C)cc(Br)c1OCC(N)=O,1.027%